A mixed list of measured activities; the numbers were collected in NIAID ChemDB.

Shared fields: whole-cell or culture tests; agent: HIV-1; measure: fold resistance

Fold resistance: result on the changed form divided by that on wild type. Lines come from different laboratories, so protocols vary.

{"structure": "Cn1c2ccccc2c2c1cc(C#N)c(=O)n2-c1ccc([N+](=O)[O-])cc1", "cell line": "HeLa", "read by": "luciferase", "strain or isolate": "NNRTI-resistant", "mutations": "RT-K103N Y181C", "value": "1.2"}
{"structure": "CCN[C@H]1CO[C@@H]2OCC[C@H](OC(=O)N[C@@H](Cc3cccc(OC)c3)[C@H](O)CN(CC(C)C)S(=O)(=O)c3ccc4nc(NC(C)C)sc4c3)[C@@H]21", "cell line": "MT-4", "read by": "p24 / luminescence", "strain or isolate": "NL4-3", "mutations": "L10I N37D G48V I54V L63P G73C I84V L90M", "value": "1.4"}
{"structure": "Cc1ccnc2c1NC(=O)c1cccnc1N2C1CC1", "cell line": "CEM + CEM-SS", "read by": "XTT", "strain or isolate": "Dihydrocostatolide-resistant (RT-L100I)", "mutations": "RT-L100I", "value": "10"}
{"structure": "Cc1ccc(S(=O)(=O)N(CC(C)C)C[C@@H](O)[C@H](Cc2ccccc2)NC(=O)O[C@H]2CO[C@H]3OCC[C@H]32)cc1", "cell line": "MT-2", "read by": "ATP", "strain or isolate": "IIIB", "mutations": "8374-P47 GS-8374-resistant", "value": "5.1"}
{"structure": "CC(C)CN(C[C@@H](O)[C@H](Cc1ccccc1)NC(=O)O[C@H]1CCOC1)S(=O)(=O)c1ccc(N)cc1", "cell line": "MT-4", "read by": "p24 / luminescence", "strain or isolate": "NL4-3", "mutations": "L10I I15V K20R L24I V32I M36I M46I L63P K70Q V82A I84V L89M", "value": ">27"}
{"structure": "CCN(c1nc(F)ccc1NC(C)(C)C)C1CCN(C(=O)c2cc3cc(NC(=O)N4CCN(C)CC4)ccc3[nH]2)CC1", "cell line": "MT-2", "read by": "p24 / ELISA", "strain or isolate": "IIIB", "mutations": "K112M K113E V128I M200I H219P", "value": "2.4"}
{"structure": "N#Cc1cc2[nH]c3ccccc3c2n(-c2ccc([N+](=O)[O-])cc2)c1=O", "cell line": "HeLa", "read by": "luciferase", "strain or isolate": "Recombinant", "mutations": "RT-M41L V118I M184V", "value": "6.5"}
{"structure": "Cc1cc(S(N)(=O)=O)ccc1NC(=O)COc1ccc(Cl)cc1C(=O)c1cc(Cl)cc(C#N)c1", "cell line": "MAGI", "read by": "β-galactosidase", "strain or isolate": "NNRTI-resistant (RT K103N G190A)", "mutations": "RT-K103N G190A", "value": "7.88"}
{"structure": "CN[C@H]1CO[C@@H]2OCC[C@H](OC(=O)N[C@@H](Cc3cccc(OC)c3)[C@H](O)CN(CC(C)C)S(=O)(=O)c3ccc4nc(NC(C)C)sc4c3)[C@@H]21", "cell line": "MT-4", "read by": "p24 / luminescence", "strain or isolate": "NL4-3", "mutations": "L10I I54V K20R L24I V32I L33F M36I M46I I54M L63P K70Q V82I I84V L89M", "value": "2.9"}
{"structure": "CCOP(=O)(COc1ccc(C[C@H](NC(=O)O[C@H]2CO[C@H]3OCC[C@H]32)[C@H](O)CN(CC(C)C)S(=O)(=O)c2ccc(OC)cc2)cc1)OCC", "cell line": "MT-2", "read by": "ATP", "strain or isolate": "IIIB", "mutations": "8374-P47 GS-8374-resistant", "value": "9.5"}
{"structure": "Cc1cn([C@H]2C[C@H](N=[N+]=[N-])[C@@H](CO)O2)c(=O)[nH]c1=O", "cell line": "CEM", "read by": "cytopathic effect", "strain or isolate": "J-2 (RT-Y181C)", "mutations": "RT-Y181C", "value": "7"}
{"structure": "CCN[C@H]1CO[C@@H]2OCC[C@H](OC(=O)N[C@@H](Cc3ccccc3)[C@H](O)CN(CC(C)C)S(=O)(=O)c3ccc4nc(NC5CC5)sc4c3)[C@@H]21", "cell line": "MT-4", "read by": "p24 / luminescence", "strain or isolate": "NL4-3", "mutations": "L10I N37D G48V I54V L63P G73C I84V L90M", "value": "1.3"}
{"structure": "Nc1nc(NC2CC2)c2ncn([C@H]3C=C[C@@H](CO)C3)c2n1", "cell line": "HeLa", "read by": "luciferase", "strain or isolate": "Recombinant", "mutations": "RT-M184V", "value": "4.7"}
{"structure": "O=c1[nH]cnc2c1ncn2[C@H]1CC[C@@H](CO)O1", "cell line": "HT4 + HT4 LacZ-1", "read by": "plaque count", "strain or isolate": "HXB2", "mutations": "RT-M41L T215Y", "value": "1.14"}
{"structure": "Cc1cn([C@H]2C[C@H](N=[N+]=[N-])[C@@H](CO)O2)c(=O)[nH]c1=O", "cell line": "CEM + CEM-SS", "read by": "XTT", "strain or isolate": "NL4-3", "mutations": "RT-A98G", "value": "10"}
{"structure": "CC[C@H]1C(=O)Nc2ccc(F)cc2N1C(=O)OC(C)C", "cell line": "CEM", "read by": "cytopathic effect", "strain or isolate": "Q-1 (RT T139K Y181C Y188D/Y)", "mutations": "RT-T139K Y181C Y188D/Y", "value": "36"}
{"structure": "CCc1c(Sc2ccccn2)n(COCc2ccccc2)c(=O)[nH]c1=O", "cell line": "CEM + CEM-SS", "read by": "XTT", "strain or isolate": "Dihydrocostatolide-resistant (RT-L100I)", "mutations": "RT-L100I", "value": "2"}
{"structure": "Cc1ccnc2c1NC(=O)c1cccnc1N2C1CC1", "cell line": "CEM", "read by": "cytopathic effect", "strain or isolate": "C-1 (RT-K101E)", "mutations": "RT-K101E", "value": "1"}
{"structure": "COC(=O)N[C@H](C(=O)N[C@@H](Cc1ccccc1)[C@@H](O)CN(Cc1ccc(-c2ccccn2)cc1)NC(=O)[C@@H](NC(=O)OC)C(C)(C)C)C(C)(C)C", "cell line": "MT-4", "read by": "p24 / luminescence", "strain or isolate": "NL4-3", "mutations": "L10F M46I I54V V82A", "value": ">213"}

For reference, 2 entries again:

| structure | cell line | read by | strain or isolate | mutations | value |
|---|---|---|---|---|---|
| CCN[C@H]1CO[C@@H]2OCC[C@H](OC(=O)N[C@@H](Cc3cccc(OC)c3)[C@H](O)CN(CC(C)C)S(=O)(=O)c3ccc4nc(NC(C)C)sc4c3)[C@@H]21 | MT-4 | p24 / luminescence | NL4-3 | L10I N37D G48V I54V L63P G73C I84V L90M | 1.4 |
| CN[C@H]1CO[C@@H]2OCC[C@H](OC(=O)N[C@@H](Cc3cccc(OC)c3)[C@H](O)CN(CC(C)C)S(=O)(=O)c3ccc4nc(NC(C)C)sc4c3)[C@@H]21 | MT-4 | p24 / luminescence | NL4-3 | L10I I54V K20R L24I V32I L33F M36I M46I I54M L63P K70Q V82I I84V L89M | 2.9 |